Structure probing of HIV-1 leader RNA with DMS

Sequence of the HIV-1 NL4-3 5' RNA, positions 1 to 437, as numbered in the source:
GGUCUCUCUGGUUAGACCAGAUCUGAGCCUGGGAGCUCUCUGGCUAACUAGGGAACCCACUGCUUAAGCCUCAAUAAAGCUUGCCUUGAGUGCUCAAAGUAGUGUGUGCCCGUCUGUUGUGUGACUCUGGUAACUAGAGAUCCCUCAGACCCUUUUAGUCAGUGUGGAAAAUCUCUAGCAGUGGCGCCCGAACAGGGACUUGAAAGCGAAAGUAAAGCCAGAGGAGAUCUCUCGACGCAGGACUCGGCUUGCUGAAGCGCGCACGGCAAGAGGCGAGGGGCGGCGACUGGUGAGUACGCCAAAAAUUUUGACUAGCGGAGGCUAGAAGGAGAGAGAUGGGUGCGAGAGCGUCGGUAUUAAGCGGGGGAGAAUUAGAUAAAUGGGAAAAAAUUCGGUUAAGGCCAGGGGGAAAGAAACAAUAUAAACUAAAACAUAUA

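Mutant RNA libraries with 1G, 2G or 3G starts, with or without cap, were folded at 37 °C for 30 min. Monomer and dimer bands were cut from native gels after folding in high salt (300 mM KCl, 5 mM MgCl2) or low salt (40 mM KCl, 0.1 mM MgCl2). Each band was probed in the gel with DMS (170 mM, 15 min, 37 °C), with ethanol as control, and sequenced.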

Scale: normalised reactivity, A and C only; low values point to paired or protected bases, higher values to unpaired ones.
One numbering serves 1G, 2G and 3G.
A position is written with its base.

For A414 the result was 3G uncapped low-salt monomer 0.43; 3G capped high-salt dimer 0.49; 2G capped high-salt monomer 0.48. A415 gave 3G uncapped low-salt monomer 0.19; 3G capped high-salt dimer 0.25; 2G capped high-salt monomer 0.22. For A416 the result was 3G uncapped low-salt monomer 0.41; 3G capped high-salt dimer 0.48; 2G capped high-salt monomer 0.46. With C417 the assay gave 3G uncapped low-salt monomer 0.77; 3G capped high-salt dimer 0.87; 2G capped high-salt monomer 0.85. For A418 the result was 3G uncapped low-salt monomer 0.61; 3G capped high-salt dimer 0.65; 2G capped high-salt monomer 0.66.

A419 gave 3G uncapped low-salt monomer 0.43; 3G capped high-salt dimer 0.47; 2G capped high-salt monomer 0.50. For A421 the result was 3G uncapped low-salt monomer 0.34; 3G capped high-salt dimer 0.36; 2G capped high-salt monomer 0.38. For A423 the result was 3G uncapped low-salt monomer 0.37; 3G capped high-salt dimer 0.42; 2G capped high-salt monomer 0.42. A424 read 3G uncapped low-salt monomer 0.30; 3G capped high-salt dimer 0.33; 2G capped high-salt monomer 0.33. For A425 the result was 3G uncapped low-salt monomer 0.48; 3G capped high-salt dimer 0.52; 2G capped high-salt monomer 0.53.

With C426 the assay gave 3G uncapped low-salt monomer 0.69; 3G capped high-salt dimer 0.77; 2G capped high-salt monomer 0.80. A428 read 3G uncapped low-salt monomer 0.11; 3G capped high-salt dimer 0.10; 2G capped high-salt monomer 0.11. A429 read 3G uncapped low-salt monomer 0.67; 3G capped high-salt dimer 0.73; 2G capped high-salt monomer 0.76. With A430 the assay gave 3G uncapped low-salt monomer 0.50; 3G capped high-salt dimer 0.52; 2G capped high-salt monomer 0.56. A431 read 3G uncapped low-salt monomer 0.55; 3G capped high-salt dimer 0.58; 2G capped high-salt monomer 0.61.

For C432 the result was 3G uncapped low-salt monomer 0.83; 3G capped high-salt dimer 0.89; 2G capped high-salt monomer 0.93. A433 read 3G uncapped low-salt monomer 0.69; 3G capped high-salt dimer 0.72; 2G capped high-salt monomer 0.77. A435 read 3G uncapped low-salt monomer 0.48; 3G capped high-salt dimer 0.48; 2G capped high-salt monomer 0.51. A437 read 3G uncapped low-salt monomer 0.03; 3G capped high-salt dimer 0.03; 2G capped high-salt monomer 0.03.

The opening 2 entries, copied out:

position,domain,3G uncapped low-salt monomer,3G capped high-salt dimer,2G capped high-salt monomer
A414,none,0.43,0.49,0.48
A415,none,0.19,0.25,0.22

Reference: Ye et al. 2022, doi:10.1038/s41594-022-00746-2.